Data as given in PubChem BioAssay AID504761 (Drosophila RNAi Screening Center, 2011)
The screen tested about 22,000 reagents; shown is a random part of those that have a named target and a result. Over the whole deposit, 116 (0.52%) were called active. 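Calls depend on retest data that are not deposited; infection was ranked per plate without normalising between plates; the unit of the infection score is not given.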 Raw values vary from plate to plate and are shown uncorrected. A plus sign joins genes that one reagent is predicted to hit. Not stated in the record: the amount of reagent, the time to read-out.

Purpose: 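Insect host genes that dengue virus relies on to spread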 (primary screen)
Cell system: D.Mel-2 cells from Drosophila
Reagent: long dsRNA against Drosophila genes
Treatment: infection with dengue virus type 2; dose and infection time not stated
Measured: 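Cells stained for dengue envelope protein and imaged; percent of infected cells per well on duplicate plates, ranked by infection, with stained nuclei counted for cell number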
Direction: infection score: higher = more virus-infected cells; cell count: higher = more cells in the well
Active means: 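Low infection ranks in the two replicates (chance level up to 0.065) followed by a retest with a 1.5-fold or larger significant decrease, p below 0.05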
Calls: active = confirmed: knock-down lowers infection; inactive = not picked or not confirmed

gene,DRSC id,"infection score, replicate 1","infection score, replicate 2","cell count, replicate 1","cell count, replicate 2",outcome
lncRNA:CR33987,DRSC26079,16.3,9.2,6212,6177,inactive
CG17726,DRSC15255,2.98,2.05,6921,6970,inactive
CG9784,DRSC20210,3.79,8.42,6839,5869,inactive
CG9784,DRSC28204,17,14.4,3375,2176,inactive
Zfrp8,DRSC04352,10.9,15.3,6378,4030,inactive
CG3713,DRSC18648,12.5,7.93,3881,2508,inactive
caz,DRSC23280,1.97,3.87,6144,6841,inactive
caz,DRSC29957,8.73,10.6,5535,6637,inactive
CG13250,DRSC11698,9.78,7.88,5795,5290,inactive
CG13250,DRSC27753,14.2,21.3,2402,4402,inactive
Hmt-1,DRSC15555,7.65,9.7,6381,6484,inactive
Prp38,DRSC07060,6.55,13.9,1741,4823,inactive
Prp38,DRSC28968,7.68,16.2,2500,3101,inactive
CG6927,DRSC18407,8.03,3.18,5839,6422,inactive
CG2157,DRSC19836,1.14,2.87,6409,6645,inactive
CG8925,DRSC16455,9.21,9.94,6408,6472,inactive
CG8925,DRSC16456,3.57,10.3,6306,6112,inactive
CG8925,DRSC16457,8.32,17,6109,5650,inactive
Vps8,DRSC09705,1.73,3.26,5886,5766,inactive
mei-P22,DRSC11366,3.82,2.9,6406,6000,inactive
CG32755,DRSC18397,4.45,5.81,1865,6695,inactive
CG32755,DRSC27494,0.13,6.35,6857,6862,inactive
lectin-46Ca,DRSC06612,7.04,4.61,6522,6313,inactive
lectin-46Ca,DRSC25469,8.26,0.95,5837,5999,inactive
Klp61F,DRSC08671,18.2,8.99,411,345,inactive
Klp61F,DRSC28179,7.17,17.8,237,332,inactive
CG13575,DRSC04211,12.2,9.44,3852,6525,inactive
CG13575,DRSC22851,4,1.11,6456,6677,inactive
CG13856,DRSC14706,24.1,10.1,6182,5423,inactive
CG6403,DRSC16033,4.79,,1231,297,inactive
CG42585 + CG31835,DRSC28807,9.96,25.2,5632,5483,inactive
CG8441,DRSC07180,22.8,15.7,6155,5445,inactive
CG10588,DRSC11628,15.7,6.75,6148,3451,inactive

A run of entries of the results above, as a working copy:
gene,DRSC id,"infection score, replicate 1","infection score, replicate 2","cell count, replicate 1","cell count, replicate 2",outcome
Zfrp8,DRSC04352,10.9,15.3,6378,4030,inactive
CG3713,DRSC18648,12.5,7.93,3881,2508,inactive
caz,DRSC23280,1.97,3.87,6144,6841,inactive
caz,DRSC29957,8.73,10.6,5535,6637,inactive

The results go on.
gene,DRSC id,"infection score, replicate 1","infection score, replicate 2","cell count, replicate 1","cell count, replicate 2",outcome
cert,DRSC09674,12.4,12.3,3886,5556,inactive
Ttc1,DRSC15016,3.29,5.48,5864,6382,inactive
Ttc1,DRSC22469,1.8,4.27,5984,6912,inactive
Ttc1,DRSC26111,0.5,1.1,5768,5358,active
CG14866,DRSC14989,4.49,28.8,6037,4530,inactive
CheA7a,DRSC17965,1.49,3.65,6117,6143,inactive
CG18302,DRSC02663,5.17,13.2,5827,5934,inactive
CG18302,DRSC29318,0.34,,290,356,inactive
noc,DRSC24997,6.47,10.8,5814,6115,inactive
Cyt-c1L,DRSC14860,,7.93,343,4490,inactive
Cyt-c1L,DRSC22096,4.23,0.7,6828,7050,inactive
Cyt-c1L,DRSC28229,9.38,8.3,5895,5013,inactive
mRpL43,DRSC04508,4.05,3.31,6446,6866,inactive
mRpL43,DRSC22571,11.7,17.5,5579,1827,inactive
Hsp70Bc,DRSC16053,2.17,3.28,6400,6255,inactive
fal,DRSC11087,9.07,16.3,6649,5933,inactive
CG13843,DRSC14693,17.1,,5274,292,inactive
Semp1,DRSC01874,9.6,3.44,4522,6882,inactive
Vps4,DRSC19338,0.87,3.4,3794,4230,inactive
Vps4,DRSC25068,1.97,3.74,4006,3880,inactive
CG13000,DRSC19519,16.1,6.14,4863,6306,inactive
CG13000,DRSC25279,18.6,13,6086,6146,inactive
Rab3,DRSC07523,3.25,12.5,6194,6304,inactive
CG13643,DRSC14641,19.9,8.25,5432,4882,inactive
CG13643,DRSC14642,3.52,2.79,5289,6018,inactive
CG13643,DRSC28349,5.48,13.2,6244,6230,inactive
Ir25a,DRSC00462,24.3,22.1,6681,6637,inactive
Ir25a,DRSC26910,10.4,,6772,,inactive
Jwa,DRSC02048,9.85,22.9,6406,5732,inactive
Jwa,DRSC26655,1.47,0.64,5768,5752,inactive
5-HT2A,DRSC11990,8.83,8.76,6693,6620,inactive
Krn,DRSC11202,1.92,0.8,6456,6645,active
Sem1,DRSC02282,9.64,24.4,1732,3684,inactive
Sem1,DRSC30061,6.38,13.5,5239,4918,inactive
CG8249,DRSC07125,9.61,8.58,6536,6734,inactive
CG13003,DRSC19522,11,4.45,6136,6427,inactive
Mlp84B,DRSC12596,1.7,,6716,416,inactive
CG4049,DRSC04443,8.12,6.89,5699,5792,inactive
CG4049,DRSC29138,1.46,2.14,410,421,inactive
CG33259,DRSC10854,0.83,1.07,6237,6348,inactive
CG33259,DRSC29910,16.4,16.2,6373,6201,inactive
